Measurements published in ChEMBL document CHEMBL1144867, “Antiviral amphipathic oligo- and polyribonucleotides: analogue development and biological studies” (J Med Chem, 2003).

test system: MRC5; assay: Inhibitory activity of compound against human cytomegalovirus (HCMV) in MRC-5 cells.

| Structure (SMILES) | EC50 [nM] |
| --- | --- |
| C#CCn1cnc2c(ncn2[C@@H]2O[C@H](COC)[C@@H](OP(C)(=O)O)[C@H]2O)c1=O | 19 |
| C#CCn1cnc2c(ncn2[C@@H]2O[C@H](COC)[C@@H](OP(C)(=O)O)[C@H]2OC)c1=O | 560 |
| CCCn1cnc2c(ncn2[C@@H]2O[C@H](COC)[C@@H](OP(C)(=O)O)[C@H]2OC)c1=S | 1300 |
